Compound potency records, mixed from different reports. Data source: NIAID ChemDB in PubChem.

Common to all: whole-cell or culture tests; agent: HIV-1; read by: luciferase / reporter gene; endpoint: EC50

Conditions beyond the fields shown may differ between rows. ECn is the concentration giving n% inhibition of infection, replication or growth. An empty or dashed field is not shown. Two numbers with a dash give a range or band.

{"compound": "Cc1nc2ccc(Br)cc2c(-c2ccc(Cl)cc2)c1C(OCC#N)C(=O)O", "cell line": "C8166", "result": "<20 µM"}
{"compound": "C[C@@H]1CN(C(=O)c2ccccc2)CCN1C(=O)C(=O)c1c[nH]c2c(N3CCN(CCCl)C3=O)cccc12", "cell line": "HeLa", "result": "<1 µM"}
{"compound": "Cc1nnc(C(=C2CCN(C(=O)C(C)Oc3cccc4ncccc34)CC2)c2ccccc2)o1", "cell line": "HeLa CD4", "result": ">1 µM"}
{"compound": "CC/C=C(\\C(=O)O)c1c(C)nc2ccc(Br)cc2c1-c1ccc(Cl)cc1", "cell line": "C8166", "result": "<20 µM"}
{"compound": "CC1CN(C(=O)c2ccccc2)CCN1C(=O)C(=O)c1ccc2cc(O)ccc2n1", "cell line": "HeLa", "result": "<1 µM"}
{"compound": "N#C/C(=C1\\CCN(C(=O)C(=O)c2c[nH]c3c(-n4ccnn4)ncc(F)c23)NC1)c1ccccc1", "cell line": "MT-2", "strain or isolate": "LAI", "result": "<0.5 µM"}
{"compound": "CC1CN(C(=O)c2ccccc2)CCN1C(=O)C(=O)c1cc2cc(F)ccc2[nH]1", "cell line": "HeLa", "result": "<1 µM"}
{"compound": "COC(=O)c1cc(NC(=O)Nc2cccc3c(C(=O)C(=O)N4CCN(C(=O)c5ccccc5)C[C@H]4C)c[nH]c23)cc(C(=O)OC)c1", "cell line": "HeLa", "result": "<1 µM"}
{"compound": "COC(=O)c1ccc(OC(C)C(=O)N2CCC(=C(c3ccccc3)c3cccnc3)CC2)c(OC)c1", "cell line": "HeLa CD4", "result": ">1 µM"}
{"compound": "CCOC(=O)C(=O)N1CCC2(C1)OCCn1c2nc(C(=O)NCc2ccc(F)cc2-n2ncnc2C)c(O)c1=O", "cell line": "MT-2", "strain or isolate": "NL4-3", "result": "≥0.1 µM"}
{"compound": "CCC1CN(C(=O)C(=O)c2c[nH]c3cccc(F)c23)CCN1C(=O)c1ccccc1", "cell line": "HeLa", "strain or isolate": "LAI", "setting": "pseudotyped", "result": "0.00538 µM"}
{"compound": "O=C(C(=O)N1CCN(C(=O)c2ccccc2)CC1)c1cc2ccccc2s1", "cell line": "HeLa", "result": "1–5 µM"}
{"compound": "C[C@H]1CN(C(=O)c2ccccc2)CCN1C(C#N)C(=O)c1cnc2ccccc2n1", "cell line": "HeLa", "result": "1–5 µM"}
{"compound": "C[C@@H]1CN(C(=O)c2ccccc2)CCN1C(=O)C(=O)c1n[nH]c2ccccc12", "cell line": "HeLa", "result": "<1 µM"}
{"compound": "CN(C)C(=O)N1CCC2(CC1)OCCn1c2nc(C(=O)NCc2ccc(F)cc2-n2cncn2)c(O)c1=O", "cell line": "MT-2", "strain or isolate": "NL4-3", "result": "0.001–0.01 µM"}
{"compound": "COc1cnc(-n2cnc(C)n2)c2[nH]cc(C(=O)C(=O)N3C(C)Cc4c(-c5ccccc5)ncnc4N3C)c12", "cell line": "MT-2", "strain or isolate": "LAI", "result": "<0.5 µM"}
{"compound": "COc1cccc2[nH]cc(C(=O)C(=O)N3CCN(C(=O)c4ccccc4)C[C@@H]3C)c12", "cell line": "HeLa", "strain or isolate": "JR-FL", "setting": "pseudotyped", "result": "0.00058 µM"}
{"compound": "COc1cnc(-n2cnc(C)n2)c2[nH]cc(C(=O)C(=O)N3CC/C(=C(\\C#N)c4ccccc4)CN3C)c12", "cell line": "MT-2", "strain or isolate": "LAI", "result": "<0.5 µM"}
{"compound": "O=C(C(=O)N1CCN(C(=O)c2ccccc2)CC1)c1c[nH]c2cccc(F)c12", "cell line": "HeLa", "strain or isolate": "JR-FL", "setting": "pseudotyped", "result": "2.4 µM"}
{"compound": "NCC(=O)N1CCCC1C(=O)NCC(N)=O", "cell line": "TZM-bl", "result": "~50 µM"}
{"compound": "C/C=C/COC(C(=O)O)c1c(C)nc2ccc(Br)cc2c1-c1ccc(Cl)cc1", "cell line": "C8166", "result": "<20 µM"}
{"compound": "COc1cccc2oc(C(=O)C(=O)N3CCN(C(=O)c4ccccc4)CC3)cc12", "cell line": "HeLa", "result": ">0.5 µM"}
{"compound": "O=C(NCc1ccc(F)cc1)c1nc2n(c(=O)c1O)CCOCC21CCN(C(=O)OCc2ccccc2)CC1", "cell line": "MT-2", "strain or isolate": "NL4-3", "result": "0.01–0.1 µM"}
{"compound": "Cc1nc2ccc(Br)cc2c(-c2ccc(Cl)cc2)c1C(O[C@H](C)C#N)C(=O)O", "cell line": "C8166", "result": "<20 µM"}
{"compound": "C[C@@H]1CN(C(=O)c2ccccc2)CCN1C(=O)C(=O)c1ccc2ccccc2c1", "cell line": "HeLa", "result": "<1 µM"}
{"compound": "CC(Oc1cccc2ncccc12)C(=O)N1CC/C(=C(\\C#N)c2ccccc2)CC1C", "cell line": "HeLa CD4", "result": "≤1 µM"}
{"compound": "Cc1ccc(-c2c(C(OC(C)C)C(=O)O)c(C)nc3ccc(Cl)cc23)cc1", "cell line": "C8166", "result": "<20 µM"}
{"compound": "CCOC(=O)CNC(=O)Nc1cccc2c(C(=O)C(=O)N3CCN(C(=O)c4ccccc4)C[C@H]3C)c[nH]c12", "cell line": "HeLa", "result": "<1 µM"}
{"compound": "CC1CN(C(=O)c2ccccc2)CCN1C(=O)C(=O)c1cccc2cc[nH]c12", "cell line": "HeLa", "result": "1–5 µM"}
{"compound": "CCOC(=O)N1CCC2(CC1)OCCn1c2nc(C(=O)NCc2ccc(F)cc2-n2cnc(C)n2)c(O)c1=O", "cell line": "MT-2", "strain or isolate": "NL4-3", "result": "0.001–0.01 µM"}
{"compound": "C[C@H]1CN(C(=O)c2ccccc2)CCN1C(=O)C(=O)c1c[nH]c2cccc(F)c12", "cell line": "HeLa", "strain or isolate": "JR-FL", "setting": "pseudotyped", "result": "0.00158 µM"}
{"compound": "O=C(C(=O)N1CCN(C(=O)c2ccccc2)CC1)c1ccc2nccnc2c1", "cell line": "HeLa", "result": "1–5 µM"}
{"compound": "Cc1ncnn1-c1cc(F)ccc1CNC(=O)c1nc2n(c(=O)c1O)CCOCC21CCN(S(=O)(=O)N(C)C)CC1", "cell line": "MT-2", "strain or isolate": "NL4-3", "result": "0.01–0.1 µM"}
{"compound": "COc1cccc2[nH]cc(C(=O)C(=O)N3CCN(C(=O)c4ccccc4)C[C@H]3C)c12", "cell line": "HeLa", "strain or isolate": "LAI", "setting": "pseudotyped", "result": "0.00093 µM"}
{"compound": "C[C@H]1CN(C(=O)c2ccccc2)CCN1C(=O)C(=O)c1cnc2ccccc2n1", "cell line": "HeLa", "result": "<1 µM"}
{"compound": "N#CC(=C1CCN(C(=O)C(=O)c2c[nH]c3c(NC(=O)Nc4cc(C(=O)O)cc(C(=O)O)c4)cccc23)CC1)c1ccccc1", "cell line": "HeLa", "result": "<1 µM"}
{"compound": "CC(=O)N1CCC2(CC1)OCCCn1c2nc(C(=O)NCc2ccc(F)cc2)c(O)c1=O", "cell line": "MT-2", "strain or isolate": "NL4-3", "result": "0.001–0.01 µM"}
{"compound": "N#CC(C(=O)c1ccc2cnccc2n1)N1CCN(C(=O)c2ccccc2)CC1", "cell line": "HeLa", "result": ">5 µM"}
{"compound": "CC1CN(C(=O)C(=O)c2c[nH]c3cccc(F)c23)CCN1C(=O)c1ccccc1", "cell line": "HeLa", "strain or isolate": "LAI", "setting": "pseudotyped", "result": "0.0026 µM"}
{"compound": "CCCC(C(=O)O)c1c(-c2ccc(Cl)cc2)c2cc(Br)ccc2[nH]c1=O", "cell line": "C8166", "result": "<20 µM"}
{"compound": "C[C@@H]1CN(C(=O)c2ccccc2)CCN1C(=O)C(=O)c1cnc2ccccc2n1", "cell line": "HeLa", "result": "<1 µM"}
{"compound": "CC(Oc1cccc2ncccc12)C(=O)N1CCC(=C(c2ccccc2)c2ccccc2)CC1", "cell line": "HeLa CD4", "result": ">1 µM"}
{"compound": "COc1ccc(-c2c(C(OC(C)C)C(=O)O)c(C)nc3ccc(Cl)cc23)cc1F", "cell line": "C8166", "result": "<20 µM"}
{"compound": "C[C@H]1CN(C(=O)c2ccccc2)CCN1C(C#N)C(=O)c1ccc2cnccc2n1", "cell line": "HeLa", "result": "1–5 µM"}
{"compound": "CC(=O)Nc1ccc(F)c2c(C(=O)C(=O)N3CCN(C(=O)c4ccccc4)CC3)c[nH]c12", "cell line": "HeLa", "result": "<1 µM"}
{"compound": "CC(C)C1CN(C(=O)c2ccccc2)CCN1C(=O)C(=O)c1c[nH]c2cccc(F)c12", "cell line": "HeLa", "strain or isolate": "LAI", "setting": "pseudotyped", "result": "0.471 µM"}
{"compound": "O=C(NCc1ccc(F)cc1)c1nc2n(c(=O)c1O)CCCCC21CCN(C(=O)OCc2ccccc2)CC1", "cell line": "MT-2", "strain or isolate": "NL4-3", "result": "0.01–0.1 µM"}
{"compound": "COc1ccc(C#N)c2[nH]cc(C(=O)N3CCN(C(=O)c4ccccc4)C[C@H]3C)c12", "cell line": "HeLa", "result": ">0.5 µM"}
{"compound": "CCC1CN(C(=O)c2ccccc2)CCN1C(=O)C(=O)c1c[nH]c2cccc(F)c12", "cell line": "HeLa", "strain or isolate": "LAI", "setting": "pseudotyped", "result": "0.0071 µM"}
{"compound": "Cc1nc2ccccc2c(-c2ccc(Cl)cc2)c1[C@H](OC(C)(C)C)C(=O)O", "cell line": "C8166", "result": "<20 µM"}
{"compound": "CN(C)S(=O)(=O)N1CCC2(CC1)OCCCn1c2nc(C(=O)NCc2ccc(F)cc2)c(O)c1=O", "cell line": "MT-2", "strain or isolate": "NL4-3", "result": "0.001–0.01 µM"}

A second listing of 3 rows from above:

compound | cell line | strain or isolate | setting | result
CCOC(=O)CNC(=O)Nc1cccc2c(C(=O)C(=O)N3CCN(C(=O)c4ccccc4)C[C@H]3C)c[nH]c12 | HeLa | - | - | <1 µM
COc1ccc(C#N)c2[nH]cc(C(=O)N3CCN(C(=O)c4ccccc4)C[C@H]3C)c12 | HeLa | - | - | >0.5 µM
C[C@@H]1CN(C(=O)c2ccccc2)CCN1C(=O)C(=O)c1ccc2ccccc2c1 | HeLa | - | - | <1 µM